Results of unrelated studies side by side (data: NIAID ChemDB).

Shared fields: growth or infection tests; organism: HIV-1; endpoint: EC50

ECn is the concentration giving n% inhibition of infection, replication or growth. Lines come from different laboratories, so protocols vary. Blank or dashed fields: not listed here.

smiles	strain or isolate	changes	cells	read by	result
Cc1occc1C(=S)Nc1ccc(Cl)c(/C=N/OC(C)(C)C)c1	IIIB	-	CEM + CEM-SS	cytopathic effect / XTT	0.4 µM
NC(=O)c1ncn([C@@H]2O[C@H](CO)[C@@H](O)[C@H]2O)n1	LAV	-	C3	p24	50 µM
Cc1cn([C@H]2C[C@H](N=[N+]=[N-])[C@@H](CO)O2)c(=O)[nH]c1=O	-	K65R	Primary T lymphocytes	p24 / ELISA	0.04 µM
Cc1cn([C@H]2C=C[C@@H](CO)O2)c(=O)[nH]c1=O	-	-	Primary lymphocytes + Lymphocytes	-	0.8 µM
NC(=O)c1sc2nccc(Nc3ccccc3)c2c1N	-	-	U1	p24 / ELISA	<0.24 µM
Cc1cn([C@H]2C[C@H](N=[N+]=[N-])[C@@H](COP(=O)(O)OCCCCCCCCN3CCN(C)CC3)O2)c(=O)[nH]c1=O	LAI	-	CEM + CEM-4	cytopathic effect / MTT	0.23 µM
Cc1ccnc2c1NC(=O)c1cccnc1N2C1CC1	NL4-3	K103N	C8166	p24 / ELISA	1.89 µM
N#CC[C@H](C1CCCC1)n1cc(-c2ncnc3[nH]ccc23)cn1	-	M184V	Primary T lymphocytes	p24 / ELISA	0.3 µM
COc1ccc(-c2cncc3sc(C(N)=O)c(N)c23)cc1	-	-	U1	p24 / ELISA	0.057 µM
C[C@H](Cn1cnc2c(N)ncnc21)OCP(=O)(O)O	-	-	Primary lymphocytes + Lymphocytes	-	0.37 µM
Cc1cn([C@H]2C[C@H](N=[N+]=[N-])[C@@H](COP(=O)(OCCCCCCCCN(C)CCN(C)C)OC[C@H]3OC(O)[C@H](O)[C@@H](O)[C@@H]3O)O2)c(=O)[nH]c1=O	LAI	-	CEM + CEM-4	RT activity	0.05 µM
C[C@@H](Cn1cnc2c(N)nc(N)nc21)OCP(=O)(O)O	BaL	-	Macrophage + Monocytes/macrophages	p24 / syncytia	1.3 µM
CSc1ccccc1NC(=O)CSc1nnnn1-c1ccccc1SC	NL4-3	WT	HeLa CD4	β-galactosidase	0.447 µM
Cc1cc(/C=C/C#N)cc(C)c1Nc1ccnc(Nc2ccc(C#N)cc2)n1	LAI	-	TZM-bl	-	0.0003 µM
COc1ccc(CN(CCN2CCCCC2)CC2CCCN(C3CCCC3)C2)cc1O	BaL	-	MAGI	β-galactosidase	>10 µM
COc1ccc(NC(=O)CSc2nnnn2-c2c(C)cc(C)cc2C)cc1Cl	NL4.3-XCS	41-215 (AZT-resistant)	HeLa CD4	β-galactosidase	0.331 µM
COC(=O)c1cc(C#N)cc(C(=O)c2cc(Cl)ccc2OCC(=O)Nc2ccc(S(N)(=O)=O)cc2C)c1	-	WTRVA	HeLa	-	0.0009 µM
Nc1ccn([C@H]2CC[C@@H](CO)O2)c(=O)n1	LAV	-	C3	p24	0.45 µM
Cc1cc(S(N)(=O)=O)ccc1NC(=O)COc1ccc(Cl)cc1C(=O)c1cc(C#N)cc(C(=O)N2CCOCC2)c1	-	V106A	HeLa	-	>2 µM
Cc1cc(C)c2c(N)c(C(N)=O)sc2n1	-	-	U1	p24 / ELISA	1.473 µM
Cc1ccc(-n2c(C)nnc2SCC(=O)Nc2cccc(Cl)c2)cc1	NL4-3	RT-K103N Y181C	HeLa + HeLa-JC53	luciferase	>10 µM
COc1ccc(-c2cncc3sc(C(N)=O)cc23)cc1	-	-	U1	p24 / ELISA	0.011 µM
Oc1cccc(CN(CCN2CCCCC2)CC2CCCN(C3CCCC3)C2)c1	LAI	-	MAGI	β-galactosidase	3 µM
Nc1ccn([C@H]2CC[C@@H](CO)O2)c(=O)n1	HXB2	-	HELA/CD4 + HELA CD4+	plaque count	0.3 µM
Cc1cc(S(N)(=O)=O)ccc1NC(=O)COc1ccc(Cl)cc1C(=O)c1cc(C#N)cc(C(=O)N2CCC2)c1	-	Y181C	HeLa	-	0.45 µM
Cc1ccc(-n2nnnc2-c2cn[nH]c2-c2cccc(F)c2)cc1	NL4.3-XCS	41-215 (AZT-resistant)	HeLa CD4	β-galactosidase	0.4 µM
Cc1cc(S(N)(=O)=O)ccc1NC(=O)COc1ccc(Cl)cc1C(=O)c1cc(C#N)cc(C(N)=O)c1	-	K103N	HeLa	-	>2 µM
Cc1cn([C@H]2C[C@H](N=[N+]=[N-])[C@@H](CO)O2)c(=O)[nH]c1=O	VB59	-	TZM-bl	luciferase	0.02 µM
NC(=O)c1sc2cncc(N3CCCCC3)c2c1N	-	-	293T	p24 / ELISA	0.68 µM
Cc1cc(S(N)(=O)=O)ccc1NC(=O)COc1ccc(Cl)cc1C(=O)c1cc(C#N)cc(C(=O)N2CCCC2)c1	-	V106A	HeLa	-	>2 µM
Cc1cn([C@H]2C[C@H](N=[N+]=[N-])[C@@H](CO)O2)c(=O)[nH]c1=O	4170 (AZT-resistant)	-	CBMC	RT activity	0.65 µM
NC(=O)c1sc2cncc(-c3ccc4c(c3)OCO4)c2c1N	-	-	U1	p24 / ELISA	0.277 µM
CC(C)=CCN1Cc2cc(Cl)cc3[nH]c(=S)n(c23)C[C@@H]1C	-	-	MM + M/M	-	0.05 µg/mL
Cc1cn([C@H]2C[C@H](N=[N+]=[N-])[C@@H](CO)O2)c(=O)[nH]c1=O	CC6 Clinical isolates	-	-	p24	0.03 µM
Cc1cc(S(N)(=O)=O)ccc1NC(=O)COc1ccc(Cl)cc1C(=O)c1cc(C#N)cc(CO)c1	-	K103N	HeLa	-	0.0045 µM
Cc1cn([C@H]2CC[C@@H](CO)O2)c(=O)[nH]c1=O	BRU	-	CEM/TK-	p24	>100 µM
Nc1nc(=O)n([C@H]2CO[C@@H](CO)S2)cc1F	4246	-	CBMC	RT activity	0.3 µM
Cc1ccc2c(C)ccc(-n3c(C)nnc3SCC(=O)Nc3ccc(S(N)(=O)=O)cc3Cl)c2c1	NL4-3	RT-Y188L	HeLa + HeLa-JC53	luciferase	0.006 µM
Cc1cn([C@H]2C=C[C@@H](CO)O2)c(=O)[nH]c1=O	Recombinant	RT-M41L A62V S68N G112S M184V	HeLa	luciferase	0.49 µM
Nc1nc2c(ncn2[C@H]2CC[C@@H](CO)O2)c(=O)[nH]1	LAV	-	C3	p24	0.12 µM
Cc1ccc(NC(=O)CSc2nnc(C)n2-c2ccc(C)c3ccccc23)c(Cl)c1	NL4-3	RT-K103N Y181C	HeLa + HeLa-JC53	luciferase	0.016 µM
CN(C)c1ccnc2sc(C(N)=O)c(N)c12	-	-	U1	p24 / ELISA	0.659 µM
Cc1cc(S(N)(=O)=O)ccc1NC(=O)COc1ccc(Cl)cc1C(=O)c1cc(C#N)cc(N(C)C)c1	-	V106A	HeLa	-	0.042 µM
CC(C)(C)NC(=O)[C@@H]1C[C@@H]2CCCC[C@@H]2CN1C[C@@H](O)[C@H](Cc1ccccc1)NC(=O)[C@H](CC(N)=O)NC(=O)c1ccc2ccccc2n1	IIIB/LAI	-	HUT-78/IIIB/LAI + HUT 78	syncytia	>44 µM
Cc1ccnc2c1NC(=O)c1cccnc1N2C1CC1	Thiazolobenzimidazole-resistant (RT V108I)	RT-V108I	CEM + CEM-SS	cytopathic effect / XTT	0.3 µM
C[C@H](Cn1cnc2c(N)nc(N)nc21)OCP(=O)(O)O	HE	-	MOLT4 + MOLT-4	syncytia	1 µM
COc1ccc(-n2c(C)nnc2SCC(=O)Nc2ccccc2Br)c2ccccc12	NL4-3	RT-K103N Y181C	HeLa + HeLa-JC53	luciferase	0.093 µM
Nc1nc(=O)n([C@@H]2CS[C@H](CO)O2)cc1F	LAI	-	TZM-bl	-	1.2 µM
Oc1ccccc1CN(CCN1CCCCC1)CC1CCCN(C2CCCC2)C1	BaL	-	MAGI	β-galactosidase	>10 µM
COC(=O)Nc1cc(C#N)cc(C(=O)c2cc(Cl)ccc2OCC(=O)Nc2ccc(S(N)(=O)=O)cc2C)c1	-	Y181C	HeLa	-	0.016 µM
CN(C)CCCn1c2ccc(O)cc2c2c3c(c4c5cc(O)ccc5[nH]c4c21)C(=O)NC3=O	-	-	U1/HIV-1(+PMA) + U1	syncytia	0.029 µM
COc1ccc(CN[C@@H](C(=O)N[C@H]2c3ccccc3C[C@H]2O)[C@H](O)[C@H](Cc2ccccc2)NC(=O)[C@@H](NC(=O)OCc2ccccc2)C(C)(C)C)cc1	K31	-	Primary T4 cells + T4	p24	0.15 µM
Nc1nc(=O)n([C@@H]2CO[C@H](CO)S2)cc1F	4170 (AZT-resistant)	-	CBMC	RT activity	3 µM
NC(=O)c1cc2c(-c3ccc4c(c3)OCO4)cncc2s1	-	-	U1	p24 / ELISA	0.065 µM
CC(=O)c1cc(C#N)cc(C(=O)c2cc(Cl)ccc2OCC(=O)Nc2ccc(S(N)(=O)=O)cc2C)c1	-	V106A	HeLa	-	0.021 µM
Cc1nc2ccccc2n1S(=O)(=O)c1cc(Br)ccc1Br	NL4-3	WT	HeLa CD4	β-galactosidase	0.8 µM
Cc1cn([C@H]2C=C[C@@H](CO)O2)c(=O)[nH]c1=O	-	L74V	Primary T lymphocytes	p24 / ELISA	0.9 µM
Cc1ccnc2c1NC(=O)c1cccnc1N2C1CC1	RF	RT-V106I Y188C	C8166	p24	>30 µM
c1cc(CN2CCCNCCNCCCNCC2)ccc1CN1CCCNCCNCCCNCC1	-	-	MM + M/M	-	0.1 µg/mL
O=C1N(Cc2ccc(CO)cc2)[C@H](Cc2ccccc2)[C@H](O)[C@@H](O)[C@@H](Cc2ccccc2)N1Cc1ccc(CO)cc1	A018C POST AZT	-	PBMC	p24	0.13 µM
C/C=C/CSc1cc(NC(=S)c2ccsc2C)ccc1Cl	UC10/costatolide-resistant (RT K103N)	RT-K103N	CEM + CEM-SS	cytopathic effect / XTT	>2 µM
C[C@H](Cn1cnc2c(N)nc(N)nc21)OCP(=O)(O)O	-	-	Primary lymphocytes + Lymphocytes	-	0.15 µM
Cn1c2ccccc2c2c1cc(C#N)c(=O)n2-c1ccc([N+](=O)[O-])cc1	NNRTI-resistant	RT-K103N Y181C	HeLa	luciferase	0.0276 µM
CC(=O)O[C@H]1C2(C=O)C(C=O)=CC[C@@]1(C)CCC2[C@H](C)CCC=C(C)C	Subtype B isolate BR48	-	PM1	p24	70 µg/mL
Nc1ccn([C@@H]2CO[C@H](CO)S2)c(=O)n1	RF	RT-K65R	C8166	p24	7 µM

Again, the opening 10 rows:

Cc1occc1C(=S)Nc1ccc(Cl)c(/C=N/OC(C)(C)C)c1 ; strain or isolate: IIIB ; cells: CEM + CEM-SS ; read by: cytopathic effect / XTT ; result: 0.4 µM
NC(=O)c1ncn([C@@H]2O[C@H](CO)[C@@H](O)[C@H]2O)n1 ; strain or isolate: LAV ; cells: C3 ; read by: p24 ; result: 50 µM
Cc1cn([C@H]2C[C@H](N=[N+]=[N-])[C@@H](CO)O2)c(=O)[nH]c1=O ; changes: K65R ; cells: Primary T lymphocytes ; read by: p24 / ELISA ; result: 0.04 µM
Cc1cn([C@H]2C=C[C@@H](CO)O2)c(=O)[nH]c1=O ; cells: Primary lymphocytes + Lymphocytes ; result: 0.8 µM
NC(=O)c1sc2nccc(Nc3ccccc3)c2c1N ; cells: U1 ; read by: p24 / ELISA ; result: <0.24 µM
Cc1cn([C@H]2C[C@H](N=[N+]=[N-])[C@@H](COP(=O)(O)OCCCCCCCCN3CCN(C)CC3)O2)c(=O)[nH]c1=O ; strain or isolate: LAI ; cells: CEM + CEM-4 ; read by: cytopathic effect / MTT ; result: 0.23 µM
Cc1ccnc2c1NC(=O)c1cccnc1N2C1CC1 ; strain or isolate: NL4-3 ; changes: K103N ; cells: C8166 ; read by: p24 / ELISA ; result: 1.89 µM
N#CC[C@H](C1CCCC1)n1cc(-c2ncnc3[nH]ccc23)cn1 ; changes: M184V ; cells: Primary T lymphocytes ; read by: p24 / ELISA ; result: 0.3 µM
COc1ccc(-c2cncc3sc(C(N)=O)c(N)c23)cc1 ; cells: U1 ; read by: p24 / ELISA ; result: 0.057 µM
C[C@H](Cn1cnc2c(N)ncnc21)OCP(=O)(O)O ; cells: Primary lymphocytes + Lymphocytes ; result: 0.37 µM